PubChem BioAssay AID504761 – Drosophila RNAi Screening Center | 2011
Assay: 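Fly genes whose silencing reduces dengue virus type 2 infection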 (primary screen). Cells: D.Mel-2 cells from Drosophila. Reagent: long dsRNA against Drosophila genes. Challenge: infection with dengue virus type 2; dose and infection time not stated. Read-out: 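Cells stained for dengue envelope protein and imaged; percent of infected cells per well on duplicate plates, ranked by infection, with stained nuclei counted for cell number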. Scale: infection score: higher = more virus-infected cells; cell count: higher = more cells in the well. Active means: 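Low infection ranks in the two replicates (chance level up to 0.065) followed by a retest with a 1.5-fold or larger significant decrease, p below 0.05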. Calls: active = confirmed: knock-down lowers infection; inactive = not picked or not confirmed.
The deposit covers about 22,000 reagents; this is an unselected part of those with a known target gene and a result. In the full data, 116 (0.52%) got an active call. 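Calls depend on retest data that are not deposited; infection was ranked per plate without normalising between plates; the unit of the infection score is not given.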 The raw values are shown without normalisation. Names joined by + are all predicted targets of the reagent. Not stated in the record: the amount of reagent, the time to read-out.

| gene knocked down | amplicon | infection score, replicate 1 | infection score, replicate 2 | cell count, replicate 1 | cell count, replicate 2 | Call |
| --- | --- | --- | --- | --- | --- | --- |
| CG31729 | DRSC02524 | 22.4 | 16.6 | 5960 | 6372 | inactive |
| CG31729 | DRSC02946 | 7.87 | 19.4 | 2186 | 3817 | inactive |
| CG31729 | DRSC25841 | 3.12 | 6.2 | 5670 | 5600 | inactive |
| lambdaTry | DRSC06137 | 5.83 | 23.2 | 1475 | 5761 | inactive |
| Cdc45 | DRSC17747 | 3.64 | – | 5829 | 242 | inactive |
| Cdc45 | DRSC18164 | 1 | 2.84 | 6380 | 4901 | inactive |
| CG13407 | DRSC14583 | 18.4 | 6.64 | 4039 | 6127 | inactive |
| CG13407 | DRSC25675 | 3.61 | 14.1 | 6530 | 6303 | inactive |
| wun2 | DRSC07566 | 3.18 | 27.6 | 6515 | 5769 | inactive |
| Ttc7 | DRSC04836 | 12.5 | 19.2 | 6310 | 6271 | inactive |
| Nemp | DRSC20206 | 6.19 | 2.62 | 6191 | 6363 | inactive |
| Nemp | DRSC26963 | 7.18 | 8.39 | 6592 | 5720 | inactive |
| CG12229 | DRSC09868 | 20.4 | 2.75 | 4838 | 472 | inactive |
| Rsph1 | DRSC02864 | 6.12 | 3.54 | 6503 | 6497 | inactive |
| Rsph1 | DRSC26510 | 0.62 | 1.6 | 6127 | 6268 | inactive |
| CG2875 | DRSC18231 | 12 | 4.2 | 6105 | 6359 | inactive |
| MED18 | DRSC18549 | – | 7.24 | 347 | 6754 | inactive |
| LanA | DRSC11207 | 4.22 | 8.13 | 6849 | 6749 | inactive |
| RanGAP | DRSC22003 | 4.01 | 2.54 | 6576 | 6641 | inactive |
| RanGAP | DRSC29400 | 0.33 | – | 303 | 370 | inactive |
| Nup35 | DRSC19999 | 1.76 | 2.15 | 6829 | 6452 | inactive |
| CG11409 | DRSC18579 | 2.09 | 3.63 | 5699 | 6192 | inactive |
| CG11409 | DRSC28360 | 18.3 | 9.56 | 3559 | 5449 | inactive |
| CG11779 + CG5835 | DRSC15886 | 3.07 | 1.2 | 6151 | 6439 | inactive |
| CG11779 + CG5835 | DRSC27415 | 14.9 | 3.77 | 5236 | 6732 | inactive |
| CG7120 | DRSC10773 | 3.34 | 2.58 | 5752 | 6506 | inactive |
| CR14499 (retired record) | DRSC06470 | 13.3 | 5.63 | 5471 | 6628 | inactive |
| CG18304 | DRSC02664 | 2.05 | 10.4 | 6061 | 5774 | inactive |
| CG18304 | DRSC28389 | – | – | 248 | 336 | inactive |
| Adk2 | DRSC09827 | 7.55 | 5.35 | 6883 | 6730 | inactive |
| CG2924 | DRSC18525 | 5.39 | 2.92 | 6194 | 6036 | inactive |
| CG2924 | DRSC28336 | 13.3 | 5.2 | 5889 | 1905 | inactive |
| MtnA | DRSC21588 | 32.7 | – | 4530 | 324 | inactive |
| CG31709 | DRSC01081 | 3.8 | 1.75 | 6447 | 1945 | inactive |
| CG31709 | DRSC27731 | 4.33 | 7.49 | 6612 | 6731 | inactive |
| CG1789 | DRSC18140 | 7.09 | 4.75 | 5854 | 6467 | inactive |
| CG1789 | DRSC28967 | 8.46 | 11.8 | 4931 | 5271 | inactive |
| CG6171 | DRSC15982 | 13.4 | 11.3 | 6329 | 6303 | inactive |
| euc | DRSC14492 | 8.39 | 0.83 | 5649 | 6500 | inactive |
| Ir7a | DRSC17866 | – | 4.25 | 409 | 1459 | inactive |
| hig | DRSC07628 | 3.21 | 1.69 | 6750 | 6674 | inactive |
| hig | DRSC22827 | 1.11 | 8.89 | 6237 | 5950 | inactive |
| hig | DRSC22899 | 5.89 | 8.22 | 5887 | 4511 | inactive |
| hig | DRSC26925 | 3.27 | 2.99 | 6028 | 5862 | inactive |
| LeuRS-m | DRSC08595 | 11.6 | 9.31 | 4554 | 5091 | inactive |
| LeuRS-m | DRSC28690 | 15.6 | 13.8 | 5396 | 4564 | inactive |
| Polr2F | DRSC12366 | 28.3 | 15.6 | 3593 | 4507 | inactive |
| Polr2F | DRSC28784 | 17.2 | 15 | 4902 | 4559 | inactive |
| can | DRSC10664 | 4.5 | 3.13 | 6518 | 6299 | inactive |
| hkb | DRSC12377 | 1.27 | 1.16 | 6593 | 7011 | inactive |
| hkb | DRSC23599 | 2.32 | 5.46 | 6556 | 6598 | inactive |
| CG31817 | DRSC01537 | 1.9 | 0.56 | 6488 | 5909 | inactive |
| CG31817 | DRSC01538 | 9.42 | 18.2 | 6190 | 6277 | inactive |
| CG31817 | DRSC22476 | 2.21 | 5.97 | 7027 | 1005 | inactive |
| Cox11 | DRSC22692 | 9.5 | 6.71 | 5738 | 6574 | inactive |
| Fancd2 | DRSC15208 | 6.89 | 1.58 | 6181 | 6844 | inactive |
| Fancd2 | DRSC22763 | 2.07 | – | 5164 | 431 | inactive |
| asRNA:Eig63F-2 + Eip63F-1 | DRSC21446 | 1.05 | 5.82 | 6194 | 6412 | inactive |

A run of entries of the results above, as a working copy:
| gene knocked down | amplicon | infection score, replicate 1 | infection score, replicate 2 | cell count, replicate 1 | cell count, replicate 2 | Call |
| --- | --- | --- | --- | --- | --- | --- |
| CG11779 + CG5835 | DRSC27415 | 14.9 | 3.77 | 5236 | 6732 | inactive |
| CG7120 | DRSC10773 | 3.34 | 2.58 | 5752 | 6506 | inactive |
| CR14499 (retired record) | DRSC06470 | 13.3 | 5.63 | 5471 | 6628 | inactive |
